Compound potency records, mixed from different reports. Data source: NIAID ChemDB in PubChem.

All rows: growth or infection tests

An empty or dashed field is not shown.

| SMILES | species | strain or isolate | cell line | read by | read-out | dose | result |
|---|---|---|---|---|---|---|---|
| CCNCCCCNC[C@@H]1C[C@@H]1CNCCCCNCC | Encephalitozoon cuniculi | - | - | - | EC50 | - | 166.5 µM |
| CSc1nsc(-c2ccc(OCCc3ccccc3)cc2)c1C#N | Encephalomyocarditis virus | - | HEP-2/L-929/VERO | plaque count | EC50 | - | 10 µM |
| CCCCCC/C=C\CNCCCCNC/C=C\CNCC | Encephalitozoon cuniculi | - | - | - | EC50 | - | 600 µM |
| CSc1nsc(-c2ccc(OCCCCOc3ccc([N+](=O)[O-])cc3)cc2)c1C#N | Encephalomyocarditis virus | - | HEP-2/L-929/VERO | plaque count | EC50 | - | >0.5 µM |
| CCNCCCCNCCCCNCCCCNCCCCNCCCCNCCCCNCCCCNCC | Encephalitozoon cuniculi | - | - | - | EC50 | - | 1.67 µM |
| CSc1nsc(-c2ccc(OS(=O)(=O)c3ccc(C)cc3)cc2)c1C#N | Encephalomyocarditis virus | Encephalomyocarditis virus | L929 | plaque count | EC50 | - | >25 µM |
| CCNCCCCNCCCCNCCCCNCCCCNCCO | Encephalitozoon cuniculi | - | - | - | EC50 | - | 62.5 µM |
| CSc1nsc(-c2ccc[n+](C)c2)c1C#N | Encephalomyocarditis virus | Encephalomyocarditis virus | L929 | plaque count | EC50 | - | >1250 µM |
| CCNCCCCNC/C=C\CNCCCCNCC | Encephalitozoon cuniculi | - | - | - | EC50 | - | 118 µM |
| CSc1nsc(-c2ccc(C(F)(F)F)cc2)c1C#N | Encephalomyocarditis virus | Encephalomyocarditis virus | L929 | plaque count | EC50 | - | >14 µM |
| CSc1nsc(-c2ccc(OCCOc3ccccc3)cc2)c1C#N | Encephalomyocarditis virus | - | HEP-2/L-929/VERO | plaque count | EC50 | - | >20 µM |
| CSc1nsc(-c2ccncc2)c1C#N | Encephalomyocarditis virus | Encephalomyocarditis virus | L929 | plaque count | EC50 | - | >2.5 µM |
| O=C1CCC(N2C(=O)c3ccccc3C2=O)C(=O)N1 | Encephalitozoon cuniculi | - | MRC-5 | - | inhibition | 10 µg/mL | 5.6% |
| CSc1nsc(-c2cccc(Cl)c2)c1C#N | Encephalomyocarditis virus | Encephalomyocarditis virus | L929 | plaque count | EC50 | - | >10 µM |
| CSc1nsc(-c2ccc(OCc3ccccc3)cc2)c1C#N | Encephalomyocarditis virus | - | HEP-2/L-929/VERO | plaque count | EC50 | - | 20 µM |

2 of the rows above, restated:

SMILES	species	strain or isolate	cell line	read by	read-out	dose	result
CSc1nsc(-c2ccncc2)c1C#N	Encephalomyocarditis virus	Encephalomyocarditis virus	L929	plaque count	EC50	-	>2.5 µM
CSc1nsc(-c2ccc(OCc3ccccc3)cc2)c1C#N	Encephalomyocarditis virus	-	HEP-2/L-929/VERO	plaque count	EC50	-	20 µM

ECn: concentration that inhibits the pathogen or its effect by n%. Lines come from different laboratories, so protocols vary. Inhibition is in % at the dose shown (toxicity tests: loss of growth or viability).